Test results: patent US5756666A, “Peptides capable of inducing immune response to HIV” (priority 1993, dated 1998)

Tested on: T2-B * 3501 cells
Details: patient lymphocytes stimulated with 1 μM peptide; target T2-B*3501 cells, T2 cells as control; FIGS. 2-4

CC[C@H](C)[C@H](NC(=O)[C@@H]1CCCN1C(=O)[C@@H](N)CCC(=O)O)C(=O)N[C@H](C(=O)NCC(=O)N[C@@H](C)C(=O)N[C@@H](CCC(=O)O)C(=O)N[C@H](C(=O)N[C@@H](Cc1ccccc1)C(=O)N[C@@H](Cc1ccc(O)cc1)C(=O)O)[C@@H](C)O)C(C)C
induction of CTL with specific cytotoxic activity: effective for inducing CTLs capable of damaging the synthetic peptide-binding T2-B * 3501 cells

CC[C@H](C)[C@H](NC(=O)[C@H](C)NC(=O)[C@@H]1CCCN1C(=O)[C@@H](N)CO)C(=O)N[C@@H](Cc1ccccc1)C(=O)N[C@@H](CCC(N)=O)C(=O)N[C@@H](CO)C(=O)N[C@@H](CO)C(=O)N[C@@H](CCSC)C(=O)O
induction of CTL with specific cytotoxic activity: effective for inducing CTLs capable of damaging the synthetic peptide-binding T2-B * 3501 cells
